System: rat hepatic microsomal PTPases
Assay: Inhibition of tri-phosphorylated insulin receptor dodecaphosphopeptide dephosphorylation by rat hepatic PTPases (malachite green)
Format: biochemical
Settings: PTPase activity, compound at 50 µM, rat liver microsomal fraction

Compound: O=[As]c1ccccc1 (stereo not shown)
- % Change from Control: -57%

Reference: patent EP1077967B1, “BIPHENYL OXO-ACETIC ACIDS USEFUL IN THE TREATMENT OF INSULIN RESISTANCE AND HYPERGLYCEMIA” (Wyeth, priority 1998, dated 1999)
